Results of unrelated studies side by side (data: NIAID ChemDB).

Shared fields: tests in culture; organism: Mycobacterium avium; measure: MIC

Blank or dashed fields: not listed here. Conditions beyond the fields shown may differ between rows. a–b is a range or a potency band.

O=C(/C=C/c1ccc(Cl)cc1)c1cnccn1 ; method: absorbance ; strain or isolate: Chester ; result: 100 µg/mL
COc1cc(=O)n(C)c2ccccc12 ; method: broth dilution / resazurin ; strain or isolate: ATCC 15769 ; result: >2000 µg/mL
N[C@@H]1CN(c2c(F)cc3c(=O)c(C(=O)O)cn([C@@H]4C[C@@H]4F)c3c2Cl)CC12CC2 ; method: broth dilution ; strain or isolate: N-444 ; result: 2 µg/mL
CC1CN(c2c(F)c(N)c3c(=O)c(C(=O)O)cn(C4CC4)c3c2F)CCN1C ; strain or isolate: RG2 ; result: 0.5 µg/mL
NNC(=O)c1ccncc1 ; method: fluorescence ; result: 0.31 µM
CN(C)C(=S)Oc1ccc(Cl)cc1C(=O)Nc1ccc(Cl)cc1 ; method: broth dilution ; strain or isolate: 330/88 ; conditions: 21 d ; result: 21 µM
CC(C)N=c1cc2n(-c3ccc(Cl)cc3)c3ccccc3nc-2cc1Nc1ccc(Cl)cc1 ; strain or isolate: 3011 ; result: 0.12 µg/mL
CCN1C(C#N)=C(C#N)N=C(c2cccs2)C1/C=C/c1ccc(-c2ccccc2)cc1 ; method: broth dilution / visual reading ; result: 12.5 µg/mL
CC(C)c1cnc(C(=O)/C=C/c2ccccc2Br)cn1 ; method: absorbance ; strain or isolate: Chester ; result: 50 µg/mL
CCN1C(C#N)=C(C#N)N=C(c2ccccc2)C1/C=C/c1ccc(-c2ccccc2)cc1 ; method: broth dilution / visual reading ; result: 12.5 µg/mL
O=C(Nc1ccccc1)c1ccccc1OP(=O)(Oc1ccccc1)Oc1ccccc1 ; strain or isolate: MY330/88 ; conditions: 7 d ; result: 125 µM
CC(C)c1cnc(C(=O)/C=C/c2ccc(Br)cc2)cn1 ; method: absorbance ; strain or isolate: Chester ; result: >100 µg/mL
CC[C@H]1OC(=O)[C@H](C)[C@@H](O[C@H]2C[C@@](C)(OC)[C@@H](O)[C@H](C)O2)[C@H](C)[C@@H](O[C@@H]2O[C@H](C)C[C@H](N(C)C)[C@H]2O)[C@](C)(OC)C[C@@H](C)C(=O)[C@H](C)[C@@H](O)[C@]1(C)O ; method: broth dilution / radiometric ; strain or isolate: 1102 ; conditions: pH 7.4 ; result: 0.5 µg/mL
CCN1CC(c2ccsc2)=NC(C#N)=C1C#N ; method: broth dilution / visual reading ; result: 6.2 µg/mL
O=C(Nc1ccc(Cl)cc1)c1cc(Cl)ccc1OP(=O)(c1ccccc1)c1ccccc1 ; strain or isolate: MY330/88 ; conditions: 14 d ; result: 16 µM
NNC(=O)c1ccncc1 ; method: absorbance ; strain or isolate: Chester ; result: 3.13–6.25 µg/mL
COc1cc(O)cc(/C=C/c2cc3ccccc3s2)c1 ; method: broth dilution ; result: 16 µg/mL
CC[C@@H](CO)NCCN[C@@H](CC)CO ; strain or isolate: 101 ; result: 8 µg/mL
O=c1c2ccccc2nc2n1CCc1c-2[nH]c2ccccc12 ; method: broth dilution / resazurin ; strain or isolate: ATCC 15769 ; result: >2000 µM
CCN1CC(c2ccccc2)=NC(C#N)=C1C#N ; method: broth dilution / visual reading ; result: 12.5 µg/mL
N[C@@H]1CONC1=O ; strain or isolate: 453-C clarithromycin-resistant ; result: 16 µg/mL
CCN1C(C#N)=C(C#N)N=C(c2ccccc2)[C@H]1/C=C/c1ccccc1 ; method: broth dilution / visual reading ; result: 12.5 µg/mL
CO[C@H]1/C=C/O[C@@]2(C)Oc3c(C)c(O)c4c(O)c(c(/C=N/N5CCN(C)CC5)c(O)c4c3C2=O)NC(=O)/C(C)=C\C=C\[C@H](C)[C@H](O)[C@@H](C)[C@@H](O)[C@@H](C)[C@H](OC(C)=O)[C@@H]1C ; strain or isolate: Isolate 90-1816 ; result: 2.5 µg/mL
CO[C@H]1/C=C/O[C@@]2(C)Oc3c(C)c(O)c4c(O)c(c(/C=N/N5CCN(C)CC5)c(O)c4c3C2=O)NC(=O)/C(C)=C\C=C\[C@H](C)[C@H](O)[C@@H](C)[C@@H](O)[C@@H](C)[C@H](OC(C)=O)[C@@H]1C ; strain or isolate: 6-13 ; result: 10 µg/mL
O=C1c2ccccc2OP(=O)(c2ccccc2)N1c1ccccc1 ; strain or isolate: MY330/88 ; conditions: 7 d ; result: >500 µM
O=C(/C=C/c1ccc(F)cc1)c1cnccn1 ; method: absorbance ; strain or isolate: Chester ; result: 100 µg/mL
O=C(O)c1cn(C2CC2)c2c(F)c(N3CCN4CCC3C4)c(F)cc2c1=O ; strain or isolate: RG2 ; result: 1 µg/mL
CNc1ccc2oc(C[C@@H]3OC4(CC[C@@H]3C)O[C@H](C(C)C(=O)c3ccc[nH]3)[C@H](C)C[C@H]4C)nc2c1C(=O)O ; method: resazurin ; strain or isolate: Vet 1387 ; result: 12.5 µg/mL
CCCCc1cnc(C(=O)/C=C/c2ccc(Cl)cc2)cn1 ; method: absorbance ; strain or isolate: Chester ; result: 12.5 µg/mL

The first 3 rows once more:

SMILES,method,strain or isolate,conditions,result
O=C(/C=C/c1ccc(Cl)cc1)c1cnccn1,absorbance,Chester,-,100 µg/mL
COc1cc(=O)n(C)c2ccccc12,broth dilution / resazurin,ATCC 15769,-,>2000 µg/mL
N[C@@H]1CN(c2c(F)cc3c(=O)c(C(=O)O)cn([C@@H]4C[C@@H]4F)c3c2Cl)CC12CC2,broth dilution,N-444,-,2 µg/mL